Test results from US20090305399A1.

Target: human Kv1.3 channel (human) (UniProt P22001)
Assay: cell-based or functional assay

For Fc-L10-OSK1[K7S] (Fc fusion), the fold change in Kv1.3 potency against Fc-L10-OSK1 was 2 fold.
